Pooled drug test results. Numbers come from NIAID ChemDB, via PubChem.

Shared fields: whole-cell or culture tests; organism: HIV-1

Fold resistance has wild type as its base. Lines come from different laboratories, so protocols vary. ECn is the concentration giving n% inhibition of infection, replication or growth. Percent inhibition refers to the dose given; in toxicity tests it is the harm to the cells. An empty or dashed field is not shown.

{"compound": "Cn1c2ccccc2c2c1cc(C#N)c(=O)n2-c1ccc([N+](=O)[O-])cc1", "strain": "NNRTI-resistant", "mutations": "RT-K103N L100I", "cell line": "HeLa", "read by": "luciferase", "measure": "fold resistance", "result": "3.6"}
{"compound": "Cc1cc(S(N)(=O)=O)ccc1NC(=O)COc1ccc(Cl)cc1C(=O)c1cc(Cl)cc(C#N)c1", "strain": "NNRTI-resistant (RT K103N G190A)", "mutations": "RT-K103N G190A", "cell line": "MAGI", "read by": "β-galactosidase", "measure": "fold resistance", "result": "7.88"}
{"compound": "Cc1cc(Br)cc(C)c1-n1nnnc1SCC(=O)Nc1ccccc1Cl", "cell line": "MT-4", "read by": "p24", "measure": "EC95", "result": "<10 µM"}
{"compound": "CC(C)(C)NC(=O)[C@@H]1C[C@@H]2CCCC[C@@H]2CN1C[C@@H](O)[C@H](Cc1ccccc1)NC(=O)[C@H](CC(N)=O)NC(=O)c1ccc2ccccc2n1", "strain": "NL4-3", "mutations": "PR-L10R M46I L63P", "cell line": "MT-4", "read by": "p24", "measure": "EC95", "result": "0.025 µM"}
{"compound": "O=C1N(Cc2ccc(CO)cc2)[C@H](Cc2ccccc2)[C@H](O)[C@@H](O)[C@@H](Cc2ccccc2)N1Cc1ccc(CO)cc1", "strain": "Clinical isolate D2", "cell line": "PBMC", "read by": "p24", "measure": "inhibition", "dose": "0.13 µM", "result": "90%"}
{"compound": "CCOP(=O)(COc1ccc(C[C@H](NC(=O)O[C@H]2CO[C@H]3OCC[C@H]32)[C@H](O)CN(CC(C)C)S(=O)(=O)c2ccc(OC)cc2)cc1)OCC", "strain": "IIIB", "mutations": "R41K", "cell line": "MT-2", "read by": "p24 / ELISA", "measure": "fold resistance", "result": "1.4"}
{"compound": "CC[C@H](C)[C@H](C(=O)O)N1C[C@H](CN2CCC(c3cc(Cc4ccc(S(=O)(=O)c5ccccc5)cc4)nn3CC)CC2)[C@@H](c2cccc(F)c2)C1", "strain": "BaL", "cell line": "HeLa", "read by": "β-galactosidase", "conditions": "50% human serum", "measure": "EC90", "result": "0.011 µM"}
{"compound": "C#C[C@]1(CO)O[C@@H](n2cnc3c(N)nc(F)nc32)C[C@@H]1O", "strain": "Clinical isolate", "mutations": "C162Y/M184V", "cell line": "MT4-GFP", "read by": "fluorescence", "measure": "EC50", "result": "0.01333 µM"}
{"compound": "CC[C@H](C)[C@H](C(=O)O)N1C[C@H](CN2CCC(c3cc(Cc4ccc(OC(C)C)cc4)nn3CC)CC2)[C@@H](c2cccc(F)c2)C1", "strain": "BaL", "cell line": "HeLa", "read by": "β-galactosidase", "conditions": "50% human serum", "measure": "EC90", "result": "0.033 µM"}
{"compound": "CC(C)CN(C[C@@H](O)[C@H](Cc1ccccc1)NC(=O)O[C@H]1CCOC1)S(=O)(=O)c1ccc(N)cc1", "strain": "IIIB", "mutations": "I401T R409K D437N", "cell line": "MT-2", "read by": "p24 / ELISA", "measure": "fold resistance", "result": "1.2"}
{"compound": "CCn1nc(Cc2cc(C(F)(F)F)cc(C(F)(F)F)c2)cc1C1CCN(C[C@H]2CN([C@@H](C(=O)O)C(C)(C)C)C[C@@H]2c2cccc(F)c2)CC1", "strain": "BaL", "cell line": "HeLa", "read by": "β-galactosidase", "conditions": "50% human serum", "measure": "EC90", "result": ">0.3 µM"}
{"compound": "O=c1[nH]cnc2c1ncn2[C@H]1CC[C@@H](CO)O1", "strain": "HIVRTMF (RT L74V)", "mutations": "RT-L74V T215Y", "cell line": "HT4 + HT4 LacZ-1", "read by": "plaque count", "measure": "fold resistance", "result": "7.14"}
{"compound": "Cc1cn([C@H]2C[C@H](N=[N+]=[N-])[C@@H](CO)O2)c(=O)[nH]c1=O", "strain": "Recombinant", "mutations": "RT-M41L A62V S68N G112S M184V", "cell line": "HeLa", "read by": "luciferase", "measure": "fold resistance", "result": "0.1"}
{"compound": "O=C(CSc1nnnn1-c1ccccc1Cl)Nc1ccccc1Cl", "cell line": "MT-4", "read by": "p24", "measure": "EC95", "result": "<10 µM"}
{"compound": "O=C(O)P(=O)(O)O", "strain": "IIIB", "cell line": "PBL", "read by": "RT activity", "conditions": "21 d", "measure": "inhibition", "dose": "64 µM", "result": "82%"}
{"compound": "Cc1ccc(S(=O)(=O)N(CC(C)C)C[C@@H](O)[C@H](Cc2ccccc2)NC(=O)O[C@H]2CO[C@H]3OCC[C@H]32)cc1", "strain": "IIIB", "mutations": "LPV-P31 lopinavir-resistant mutant", "cell line": "MT-2", "read by": "ATP", "measure": "fold resistance", "result": "0.8"}
{"compound": "Cc1cc(C)c(-n2nnnc2SCC(=O)Nc2ccc(C#N)cc2Cl)c(C)c1", "cell line": "MT-4", "read by": "p24", "measure": "EC95", "result": "<10 µM"}
{"compound": "Cc1cn([C@H]2C[C@H](N=[N+]=[N-])[C@@H](COP(=O)(O)OC[C@H]3OC(O)[C@@H](O)[C@@H](O)[C@@H]3O)O2)c(=O)[nH]c1=O", "strain": "LAV-Bru", "cell line": "U-937", "read by": "RT activity", "conditions": "14 d", "measure": "inhibition", "dose": "25 µM", "result": "0%"}
{"compound": "CC[C@@H](C)[C@H](C(=O)O)N1C[C@H](CN2CCC(c3cc(Cc4cccc(CN)c4)nn3CC)CC2)[C@@H](c2cccc(F)c2)C1", "strain": "BaL", "cell line": "HeLa", "read by": "β-galactosidase", "measure": "EC90", "result": "0.0037 µM"}
{"compound": "CC(=O)N1CCC(C(=O)N(CCCN2CCC(Cc3ccc(C(N)=O)cc3)CC2)c2ccc(C)c(Cl)c2)CC1", "strain": "R5 subtype B_9 recombinant", "cell line": "U87 (CD4+ CCR5+) + U87", "read by": "luciferase", "measure": "EC50", "result": "0.013 µM"}
{"compound": "N#Cc1cc2[nH]c3ccccc3c2n(-c2ccc([N+](=O)[O-])cc2)c1=O", "strain": "NNRTI-resistant", "mutations": "RT-K103N Y181C", "cell line": "HeLa", "read by": "luciferase", "measure": "fold resistance", "result": "2.2"}
{"compound": "CCn1nc(Cc2ccc3c(c2)OCO3)cc1C1CCN(C[C@H]2CN([C@@H](C(=O)O)C(C)(C)C)C[C@@H]2c2cccc(F)c2)CC1", "strain": "BaL", "cell line": "HeLa", "read by": "β-galactosidase", "measure": "EC90", "result": "<0.00014 µM"}
{"compound": "Cc1cn([C@H]2C[C@H](N=[N+]=[N-])[C@@H](CO)O2)c(=O)[nH]c1=O", "strain": "LAV-Bru", "cell line": "CEM", "read by": "RT activity", "conditions": "15 d", "measure": "inhibition", "dose": "1 µM", "result": "97%"}
{"compound": "CCn1nc(Cc2cc(F)cc(F)c2)cc1C1CCN(C[C@H]2CN([C@@H](C(=O)O)C3CCCCC3)C[C@@H]2c2cccc(F)c2)CC1", "strain": "BaL", "cell line": "HeLa", "read by": "β-galactosidase", "measure": "EC90", "result": "<0.00014 µM"}
{"compound": "O=S(=O)(O)c1cc(N=C=S)ccc1CCc1ccc(N=C=S)cc1S(=O)(=O)O", "strain": "GB8", "cell line": "JM", "read by": "p24", "measure": "inhibition", "dose": "50 µg/mL", "result": "99.9%"}
{"compound": "CC(C)CN(C[C@@H](O)[C@H](Cc1ccccc1)NC(=O)[C@H](CC(N)=O)NC(=O)c1ccc2ccccc2n1)C(=O)NC(C)(C)C", "strain": "NL4-3", "mutations": "PR-L10R", "cell line": "MT-4", "read by": "p24", "measure": "EC95", "result": "0.1 µM"}
{"compound": "CCOc1ccc(Cc2cc(C3CCN(C[C@H]4CN([C@@H](C(=O)O)[C@@H](C)CC)C[C@@H]4c4cccc(F)c4)CC3)n(CC)n2)cc1F", "strain": "BaL", "cell line": "HeLa", "read by": "β-galactosidase", "conditions": "50% human serum", "measure": "EC90", "result": "0.011 µM"}
{"compound": "CC(C)=CCN1Cc2cc(Cl)cc3[nH]c(=S)n(c23)C[C@@H]1C", "mutations": "RT-L74V A98G", "cell line": "MT-4", "measure": "EC95", "result": ">3 µM"}
{"compound": "CC(Sc1nnnn1-c1cccc2ccccc12)C(=O)Nc1ccccc1Cl", "cell line": "MT-4", "read by": "p24", "measure": "EC95", "result": "<10 µM"}
{"compound": "CCCCCCCCCCCCCCCCOP(=O)(OC[C@H]1OC(O)[C@H](O)[C@@H](O)[C@@H]1O)OC[C@H]1O[C@@H](n2cc(C)c(=O)[nH]c2=O)C[C@@H]1N=[N+]=[N-]", "strain": "LAV-Bru", "cell line": "CEM", "read by": "RT activity", "conditions": "15 d", "measure": "inhibition", "dose": "0.2 µM", "result": "92%"}

The first 3 rows once more:

compound,strain,mutations,cell line,read by,conditions,measure,dose,result
Cn1c2ccccc2c2c1cc(C#N)c(=O)n2-c1ccc([N+](=O)[O-])cc1,NNRTI-resistant,RT-K103N L100I,HeLa,luciferase,-,fold resistance,-,3.6
Cc1cc(S(N)(=O)=O)ccc1NC(=O)COc1ccc(Cl)cc1C(=O)c1cc(Cl)cc(C#N)c1,NNRTI-resistant (RT K103N G190A),RT-K103N G190A,MAGI,β-galactosidase,-,fold resistance,-,7.88
Cc1cc(Br)cc(C)c1-n1nnnc1SCC(=O)Nc1ccccc1Cl,-,-,MT-4,p24,-,EC95,-,<10 µM